In patent publication US9340600B2 (Indiana University Research and Technology Corporation, priority 2012, dated 2016):

Experiment: general procedure: Boc solid-phase peptide synthesis; MBHA resin, 100-180 mesh, 1% DVB, loading 0.7-1.0 mmol/g (Midwest Biotech); DEPBT/DIEA single couplings; DIC for acylation
Details: whole synthesis, Analytical HPLC, UV 214/220 nm, scale of the general procedure 0.2 mmole

Substance | final HPLC purity
HaibQGTFTSDYSKYLDERAAQDFVQWLLDGGPSSGAPPPSC-amide | 95%
HaibQGTFTSDYSKYLDERAAQDFVQWLLDGGPSSGAPPPSK(Dap-BrAcetyl)G-amide | purity=90%+
